Source: US12723063B2 (Eli Lilly and Company, priority 2019, dated 2026)

Assay: general procedure: Fmoc solid-phase peptide synthesis; aminomethyl polystyrene with Rink Amide linker (polystyrene AM RAM, RAPP), 0.8 mmol/g; diisopropylcarbodiimide/Oxyma; PyBOP/diisopropylethylamine for the fatty diacid
Details: whole synthesis, analytical RP-HPLC, TFA salt

Substance: Y-(D-Ala)-EGTFISDYSILLDKK((2-[2-(2-Amino-ethoxy)-ethoxy]-acetyl)2-(γ-Glu)-CO—(CH2)18—CO2H)AQ-Aib-DFVNWLLAQGPSSGAPPPS-NH2
- final HPLC purity: 96.8%
